Compound potency records, mixed from different reports. Data source: NIAID ChemDB in PubChem.

Common to all: tests in culture; organism: HIV-1; read-out: EC50

Lines come from different laboratories, so protocols vary.

C#C[C@]1(COC(=O)CCCCCCCC#CCCCCCCCC)O[C@@H](n2cnc3c(N)nc(F)nc32)C[C@@H]1O ; strain: NL4-3 ; changes: M184V ; cells: U373-CD4-CXCR4 ; setting: pseudotyped ; result: 0.014 µM
Cc1cc(OCCCN2CCOCC2)ccc1NC(=O)COc1ccc(Cl)cc1C(=O)c1cccs1 ; strain: HXB2 ; changes: RT-Y181C ; cells: HeLa + HELA CD4+ ; read by: β-galactosidase ; result: 0.011–0.1 µM
C[C@H]1CO[C@@H]2Cn3cc(C(=O)NCc4ccc(F)cc4F)c(=O)c(O)c3C(=O)N12 ; strain: NL4-3 ; changes: H51Y/R263K ; cells: CBMC ; read by: RT activity ; result: 0.00098 µM
CC(=O)Oc1ccc(C(=O)N2CCN(C(=O)C(=O)c3c[nH]c4cccc(Cl)c34)CC2)cc1 ; cells: HeLa + HELA CD4+/CCR5 ; read by: luciferase ; result: <10 µM
NC(=O)CCNC(=O)c1ccccc1SCc1ccc(OP2(=O)OCc3ccccc3O2)cc1 ; cells: Macrophage ; read by: XTT ; result: 0.18 µM
CN(C(=O)[C@H](Cc1ccccc1)NC(=O)NS(=O)(=O)N[C@@H](Cc1ccccc1)C(=O)N(C)c1ccccc1)c1ccccc1 ; strain: NL4-3 ; cells: MT-2 ; read by: luciferase ; result: 0.97 µM
CCN(CC)C(=O)OCC1CN(C(=O)c2cc(OC)c(OC)c(OC)c2)CCN1Cc1ccccc1 ; strain: BaL ; cells: MDM ; read by: RT activity ; result: 40 µM
CN(C(=O)[C@H](Cc1cc(F)cc(F)c1)NC(=O)NS(=O)(=O)N[C@@H](Cc1cc(F)cc(F)c1)C(=O)N(C)c1ccc(F)c(F)c1)c1ccc(F)c(F)c1 ; strain: NL4-3 ; cells: MT-2 ; read by: luciferase ; result: 0.31 µM
C#C[C@]1(COC(=O)C(C)(C)C)O[C@@H](n2cnc3c(N)nc(F)nc32)C[C@@H]1O ; strain: NL4-3 ; changes: M184V ; cells: U373-CD4-CXCR4 ; setting: pseudotyped ; result: 0.15 µM
Cc1cc(S(N)(=O)=O)ccc1NC(=O)COc1ccc(Cl)cc1C(=O)c1cccc(C#N)c1 ; strain: HXB2 ; changes: RT-K103N V108I ; cells: HeLa + HELA CD4+ ; read by: β-galactosidase ; result: <0.01 µM
COc1cnc(-n2cnc(C)n2)c2[nH]cc(C(=O)C(=O)N3CCC(=C(c4ccccc4)c4nnco4)CC3)c12 ; cells: HeLa ; read by: luciferase ; result: <1 µM
O=C1Nc2ccc(Cl)cc2C(C#Cc2ccsc2)(C(F)(F)F)O1 ; changes: RT-K103N ; result: <0.3219 µM
COc1ncc(OC)c2c(C(=O)C(=O)N3CCC(=C(c4ccccc4)c4cnccn4)CC3)c[nH]c12 ; cells: HeLa ; read by: luciferase ; result: <1 µM
O=C(C(=O)N1CCN(C(=O)c2ccccc2)CC1)c1c[nH]c2cc(F)c(F)cc12 ; cells: HeLa + HELA CD4+/CCR5 ; read by: luciferase ; result: <10 µM
CCN(CC)C(=O)OCC1CN(C(=O)c2ccccc2)CCN1C(=O)c1ccccc1 ; strain: BaL ; cells: MDM ; read by: RT activity ; result: >100 µM
Cc1cc2cn[nH]c2cc1NC(=O)COc1ccc(Cl)cc1C(=O)c1cccc(C#N)c1 ; strain: HXB2 (RT-K103N Y181C) Recombinant ; changes: RT-K103N Y181C ; cells: HeLa + HELA CD4+ ; read by: β-galactosidase ; result: <0.01 µM
COc1cnc(-c2ccc(S(C)(=O)=O)cc2)c2[nH]cc(C(=O)C(=O)N3CCC(=C(C#N)c4ccccc4)CC3)c12 ; cells: HeLa ; read by: luciferase ; result: <1 µM
C#C[C@]1(COC(C)=O)O[C@@H](n2cnc3c(N)nc(F)nc32)C[C@@H]1O ; strain: NL4-3 ; changes: M184V ; cells: U373-CD4-CXCR4 ; setting: pseudotyped ; result: 0.055 µM
CC(O)CCCCCC(CCCCCCCCCCCCCC1CC(=O)OC[C@H]2O[C@@H](OC(CCCCCCCCCCCC(CCCCCC(C)O)O[C@@H]3O[C@H](CO)[C@@H](O)[C@H](O)[C@H]3O)CC(=O)OC[C@@H]3O[C@H](O1)[C@@H](O)[C@H](O)[C@H]3O)[C@H](O)[C@@H](O)[C@@H]2O)O[C@@H]1O[C@H](CO)[C@@H](O)[C@H](O)[C@H]1O ; strain: 89.6 ; cells: MAGI (CCR5) + MAGI ; read by: β-galactosidase ; result: 6.1 µg/mL
C#C[C@]1(COC(=O)C(C)CCCCC)O[C@@H](n2cnc3c(N)nc(F)nc32)C[C@@H]1O ; strain: NL4-3 ; changes: M184V ; cells: U373-CD4-CXCR4 ; setting: pseudotyped ; result: 0.007 µM
O=C(C(=O)N1CCN(C(=O)c2ccccc2O)CC1)c1c[nH]c2cccc(F)c12 ; cells: HeLa + HELA CD4+/CCR5 ; read by: luciferase ; result: <10 µM
COc1ncc(OC)c2c(C(=O)C(=O)N3CCC(=C(F)c4ccccc4)CC3)c[nH]c12 ; cells: HeLa ; read by: luciferase ; result: <1 µM
Cc1cc(C#N)cc(C(=O)c2cc(Cl)ccc2OCC(=O)Nc2ccc(S(N)(=O)=O)nc2C)c1 ; strain: WTRVA ; cells: HeLa + HELA CD4+ ; read by: β-galactosidase ; result: <0.01 µM
C#C[C@]1(COC(=O)C(CCCC)CCCCCC)O[C@@H](n2cnc3c(N)nc(F)nc32)C[C@@H]1O ; strain: NL4-3 ; changes: M184V ; cells: U373-CD4-CXCR4 ; setting: pseudotyped ; result: 0.113 µM
CS(=O)(=O)Nc1ccc(NC(=O)COc2ccc(Cl)cc2C(=O)c2ccccc2)cc1 ; strain: HXB2 (RT-K103N Y181C) Recombinant ; changes: RT-K103N Y181C ; cells: HeLa + HELA CD4+ ; read by: β-galactosidase ; result: 0.101–1 µM
COc1ccc(OC)c2c(C(=O)C(=O)N3CCN(C(=O)c4ccccc4)CC3)c[nH]c12 ; strain: JR-FL ; cells: HeLa-CD4/CCR5 ; read by: single cycle ; result: 0.0001 µM
C=CCN(C(=O)[C@H](Cc1cc(F)cc(F)c1)NC(=O)NS(=O)(=O)N[C@@H](Cc1cc(F)cc(F)c1)C(=O)N(CC=C)c1ccc(OC)nc1)c1ccc(OC)nc1 ; strain: NL4-3 ; cells: MT-2 ; read by: luciferase ; result: 0.58 µM
COCCOC1(C(F)(F)F)OC(=O)Nc2ccc(Cl)cc21 ; result: <0.06141 µM
Cc1cc(C#N)cc(C)c1Oc1nc(Nc2ccc(C#N)cc2)nc(N)c1Br ; strain: 94ug114.1.6 ; changes: N348I ; cells: HEK293T ; read by: luciferase ; result: 7.26 nM
O=C1Nc2ccc(Cl)cc2C(OCc2ccccc2)(C(F)(F)F)O1 ; result: <0.01789 µM
CCN(CC)C(=O)OCC1CN(C(=S)c2cc(OC)c(OC)c(OC)c2)CCN1C(=S)c1cc(OC)c(OC)c(OC)c1 ; strain: BaL ; cells: MDM ; read by: RT activity ; result: <10 µM
COc1cnc(-n2ccnn2)c2[nH]cc(C(=O)C(=O)N3CCC(=C(c4ccccc4)c4n[nH]c(=O)o4)CC3)c12 ; cells: HeLa ; read by: luciferase ; result: <1 µM
C#C[C@]1(COC(=O)C(CCCCCC)CCCCCCCC)O[C@@H](n2cnc3c(N)nc(F)nc32)C[C@@H]1O ; strain: NL4-3 ; changes: M184V ; cells: U373-CD4-CXCR4 ; setting: pseudotyped ; result: 0.176 µM
COc1ccc(Br)c2[nH]cc(C(=O)C(=O)N3CCN(C(=O)c4ccccc4)CC3)c12 ; cells: HeLa + HELA CD4+/CCR5 ; read by: luciferase ; result: <10 µM
C#C[C@]1(COC(=O)CCCCCCCCCC)O[C@@H](n2cnc3c(N)nc(F)nc32)C[C@@H]1O ; strain: NL4-3 ; changes: M184V ; cells: U373-CD4-CXCR4 ; setting: pseudotyped ; result: 0.009 µM
COc1ccnc2[nH]cc(C(=O)C(=O)N3CCC(=C(F)c4ccccc4)CC3)c12 ; cells: HeLa ; read by: luciferase ; result: <1 µM
CC#C[C@]1(O)CC[C@H]2[C@@H]3CCC4=CC(=O)CCC4=C3[C@@H](c3ccc(N(C)C)cc3)C[C@@]21C ; strain: NL4-3 ; cells: CEMx174 ; read by: p24 / GFP ; result: 0.5 µM
COc1ccc(F)c2c(C(=O)C(=O)N3CCN(C(=O)c4ccc(N)cc4)C[C@H]3C)c[nH]c12 ; cells: HeLa + HELA CD4+/CCR5 ; read by: luciferase ; result: <10 µM
CCN(CC)C(=O)OCC1CN(C(=O)c2ccc(OC)c(OC)c2)CCN1C(=O)c1ccc(OC)c(OC)c1 ; strain: BaL ; cells: MDM ; read by: RT activity ; result: >10 µM
C#C[C@]1(COC(=O)C(CCC)CCC)O[C@@H](n2cnc3c(N)nc(F)nc32)C[C@@H]1O ; strain: NL4-3 ; changes: M184V ; cells: U373-CD4-CXCR4 ; setting: pseudotyped ; result: 0.111 µM
Cc1ccc(C(=O)N2CCN(C(=O)C(=O)c3c[nH]c4cccc(F)c34)CC2)cn1 ; cells: HeLa + HELA CD4+/CCR5 ; read by: luciferase ; result: <10 µM
O=C1Nc2ccc(F)c(F)c2C(C#Cc2cccnc2)(C(F)(F)F)O1 ; result: <0.00223 µM
CCN(CC)C(=O)OCC1CN(Cc2cc(OC)c(OC)c(OC)c2)CCN1Cc1cc(OC)c(OC)c(OC)c1 ; strain: BaL ; cells: MDM ; read by: RT activity ; result: <10 µM
COc1ccc(N(C)C(=O)[C@H](Cc2ccccc2)NC(=O)c2cc(C(=O)N[C@@H](Cc3ccccc3)C(=O)N(C)c3ccc(OC)cc3)on2)cc1 ; strain: NL4-3 ; cells: MT-2 ; read by: luciferase ; result: 0.71 µM
COC(=O)c1cccc2c(C(=O)C(=O)N3CCN(C(=O)c4ccccc4)C(C(C)C)C3)c[nH]c12 ; cells: HeLa + HELA CD4+/CCR5 ; read by: luciferase ; result: <10 µM
Cc1cc(OCCCS(N)(=O)=O)ccc1NC(=O)COc1ccc(Cl)cc1C(=O)c1cc(F)cc(C(F)(F)F)c1 ; strain: HXB2 (RT-K103N G190A) Recombinant ; changes: RT-K103N G190A ; cells: HeLa + HELA CD4+ ; read by: β-galactosidase ; result: 0.011–0.1 µM
COc1ccc(N(C)C(=O)[C@H](Cc2cc(F)cc(F)c2)NC(=O)NS(=O)(=O)N[C@@H](Cc2cc(F)cc(F)c2)C(=O)N(C)c2ccc(OC)cc2)cc1 ; strain: NL4-3 ; cells: MT-2 ; read by: luciferase ; result: 0.01 µM
Cc1cc(C#N)cc(C(=O)c2cc(Cl)ccc2OCC(=O)Nc2ccc(OCCCN3CC=CC3)cc2C)c1 ; strain: HXB2 ; changes: RT-G190A ; cells: HeLa + HELA CD4+ ; read by: β-galactosidase ; result: <0.01 µM
CCN(CC)C(=O)OCC1CN(C(=S)c2cc(OC)c(OC)c(OC)c2)CCN1C(=O)c1cc(OC)c(OC)c(OC)c1 ; strain: BaL ; cells: MDM ; read by: RT activity ; result: >10 µM

For reference, 5 entries again:

SMILES | strain | changes | cells | read by | setting | result
COc1cnc(-n2cnc(C)n2)c2[nH]cc(C(=O)C(=O)N3CCC(=C(c4ccccc4)c4nnco4)CC3)c12 |  |  | HeLa | luciferase |  | <1 µM
Cc1cc2cn[nH]c2cc1NC(=O)COc1ccc(Cl)cc1C(=O)c1cccc(C#N)c1 | HXB2 (RT-K103N Y181C) Recombinant | RT-K103N Y181C | HeLa + HELA CD4+ | β-galactosidase |  | <0.01 µM
CCN(CC)C(=O)OCC1CN(C(=S)c2cc(OC)c(OC)c(OC)c2)CCN1C(=O)c1cc(OC)c(OC)c(OC)c1 | BaL |  | MDM | RT activity |  | >10 µM
CN(C(=O)[C@H](Cc1cc(F)cc(F)c1)NC(=O)NS(=O)(=O)N[C@@H](Cc1cc(F)cc(F)c1)C(=O)N(C)c1ccc(F)c(F)c1)c1ccc(F)c(F)c1 | NL4-3 |  | MT-2 | luciferase |  | 0.31 µM
COc1ncc(OC)c2c(C(=O)C(=O)N3CCC(=C(c4ccccc4)c4cnccn4)CC3)c[nH]c12 |  |  | HeLa | luciferase |  | <1 µM

ECn: concentration that inhibits the pathogen or its effect by n%. An empty or dashed field is not shown. Two numbers with a dash give a range or band.